{"source": "patent US5212286A", "about": "(Scios Nova Inc., priority 1986, dated 1993)", "assay": "general procedure: Boc solid-phase peptide synthesis; Boc-Phe-pMBHA-Resin; N,N'-dicyclohexylcarbodiimide", "settings": "whole synthesis, reversed phase HPLC, acetate salt", "note": "Some peptides are written in HELM: one residue between dots, names in brackets for other building blocks, links after the first $. One purity is given for all peptides; the source may state it once.", "data": [{"substance": "PEPTIDE1{R.S.S.C.F.G.G.R.I.D.R.I.G.A.Q.S.G.L.G.C.N.S.F.[am]}$PEPTIDE1,PEPTIDE1,4:R3-20:R3$$$V2.0", "values": [{"measurement": "final HPLC purity", "result": "minimum 97% purity"}]}]}
